Measured values from several laboratories, pooled; numbers as filed in NIAID ChemDB.

All rows: whole-cell or culture tests; agent: Encephalitozoon intestinalis

A number after MIC or MFC names an inhibition level or a share of isolates.

compound	endpoint	cells	tested at	result
CCOC(=O)Nc1cc2c(c(N)n1)N=C(c1ccc(OC)cc1)CO2	inhibition	RK-13	0.1 µg/mL	80.9%
CO[C@@H]1[C@H](OC(=O)NC(=O)CCl)CC[C@]2(CO2)[C@H]1[C@@]1(C)O[C@@H]1CC=C(C)C	EC50	-	-	≥0.05 µM
CO[C@@H]1[C@@H](OC(N)=O)[C@@H](O)[C@H](Oc2ccc3c(O)c(NC(=O)c4ccc(O)c(CC=C(C)C)c4)c(=O)oc3c2C)OC1(C)C	MIC50	-	-	>100 µM
COC(=O)Nc1nc2ccc(Sc3ccccc3)cc2[nH]1	EC50	E6	-	0.01 µg/mL
COc1ccc(C)cc1NCc1cnc2nc(N)nc(N)c2c1C	inhibition	RK-13	0.1 µg/mL	72.2%
COc1c(N2CCNC(C)C2)c(F)cc2c(=O)c(C(=O)O)cn(C3CC3)c12	MIC50	-	-	85 µM
CCOC(=O)Nc1cc2[nH]c(=O)c(-c3ccccc3)nc2c(NC(c2ccccc2)c2ccccc2)n1	inhibition	RK-13	0.1 µg/mL	75.8%
CCCSc1ccc2nc(NC(=O)OC)[nH]c2c1	EC50	E6 HOST CELLS	-	0.3 µg/mL
CCCSc1ccc2nc(NC(=O)OC)[nH]c2c1	MIC50	-	-	0.008 µg/mL
COC(=O)Nc1nc2ccc(C(=O)c3cccs3)cc2[nH]1	EC50	E6	-	0.001 µg/mL
CC(=O)N[C@H]1[C@@H](O[C@@H]2O[C@H](C[C@@H](O)[C@H]3O[C@@H](n4ccc(=O)[nH]c4=O)[C@H](O)[C@@H]3O)[C@H](O)[C@H](O)[C@H]2NC(=O)/C=C/CC(C)C)O[C@H](CO)[C@@H](O)[C@@H]1O	inhibition	RK-13	0.01 µg/mL	54.5%
CCn1cc(C(=O)O)c(=O)c2cc(F)c(N3CCNC(C)C3)c(F)c21	MIC50	-	-	3 µM
CCCSc1ccc2nc(NC(=O)OC)[nH]c2c1	MIC	-	-	0.008 µg/mL
O=c1ccc2cccc(O)c2[nH]1	MIC50	-	-	53 µM
CCOC(=O)Nc1cc2[nH]c(-c3ccc(OC)cc3)nc2c(NC(c2ccccc2)c2ccccc2)n1	inhibition	RK-13	0.01 µg/mL	10.8%
COC(=O)Nc1nc2ccccc2[nH]1	EC50	E6 HOST CELLS	-	>3 µg/mL
O=C1N[C@@H]2C(c3cc4c(cc31)OCO4)[C@@H](O)[C@H](O)[C@@H](O)[C@H]2O	EC50	RK-13	-	0.2 µM
CCOC(=O)Nc1cc(NC/C(=N/O)c2ccc(Cl)cc2Cl)c([N+](=O)[O-])c(N)n1	inhibition	RK-13	0.01 µg/mL	6.5%
COC(=O)Nc1nc2ccc(S(=O)c3ccccc3)cc2[nH]1	EC50	E6	-	0.004 µg/mL

Again, the opening 2 rows:

compound	endpoint	cells	tested at	result
CCOC(=O)Nc1cc2c(c(N)n1)N=C(c1ccc(OC)cc1)CO2	inhibition	RK-13	0.1 µg/mL	80.9%
CO[C@@H]1[C@H](OC(=O)NC(=O)CCl)CC[C@]2(CO2)[C@H]1[C@@]1(C)O[C@@H]1CC=C(C)C	EC50	-	-	≥0.05 µM

Neighbouring rows are from separate reports. Percent inhibition refers to the dose given; in toxicity tests it is the harm to the cells. ECn: concentration that inhibits the pathogen or its effect by n%. An empty or dashed field is not shown.